Test results reported in patent US20080234184A1 (CENTRE NATIONAL DE LA RECHERCHE SCIENTIFIQUE, published 2008).
Numbering of substitutions follows the chain as printed. Names and notes keep the numbering of the source.

Experiments:
[1] = biological target: the molecule itself; assay: SDS-PAGE, anti-GST Western blot (FIG. 2B); homo-oligomers
[2] = biological target: the molecule itself; assay: SDS-PAGE, Western blot (FIG. 3A); homo-oligomers, weaker than the non-mutated form

B1: GST-DP-TME2 chimera (other)
chain: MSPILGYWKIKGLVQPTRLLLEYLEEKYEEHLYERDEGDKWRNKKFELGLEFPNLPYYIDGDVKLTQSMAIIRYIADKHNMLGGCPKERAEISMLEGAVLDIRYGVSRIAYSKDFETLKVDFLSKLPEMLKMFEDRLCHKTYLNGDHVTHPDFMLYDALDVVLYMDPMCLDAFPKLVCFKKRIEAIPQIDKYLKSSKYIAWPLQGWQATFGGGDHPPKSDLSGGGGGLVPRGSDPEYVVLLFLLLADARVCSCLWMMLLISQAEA
notes: also called G-DP-TME2
B1: binds [1].

B2: GST-DP-TME2-C731/C733A chimera (other)
chain: B1 chain with C251A, C253A
notes: Double mutant of GST-DP-TME2; also called GST-DP-TME2-C731/733A; GST-TME2-C731/733A
B2: binds [2].

B3: GST-DP-TME1 chimera (other)
chain: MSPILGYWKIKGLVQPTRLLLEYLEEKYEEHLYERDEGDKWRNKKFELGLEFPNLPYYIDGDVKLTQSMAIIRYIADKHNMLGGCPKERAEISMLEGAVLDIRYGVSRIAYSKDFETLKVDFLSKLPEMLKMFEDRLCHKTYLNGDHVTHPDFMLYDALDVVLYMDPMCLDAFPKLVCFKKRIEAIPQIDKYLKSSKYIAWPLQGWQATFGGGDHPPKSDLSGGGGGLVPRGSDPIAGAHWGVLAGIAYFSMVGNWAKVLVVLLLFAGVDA
notes: Expressed in E. coli BL21 Gold(DE3)pLysS from pGEXKT-DP-TME1; analysed in whole lysate by SDS-PAGE and Western blot; The oligomeric state varies (monomer, dimer, trimer); also called G-DP-TME1
B3: binds [1].
